This note sets out measurements from publication PMC5864910, “Mutacin 1140 Lantibiotic Variants Are Efficacious Against Clostridium difficile Infection” (Frontiers in Microbiology, 2018).

Regarding `C=C1NC(=O)[C@H](Cc2c[nH]c3ccccc23)NC(=O)[C@H](NC(=O)[C@H](CCCCN)NC(=O)[C@@H](N)Cc2ccccc2)CSC[C@@H](C(=O)N[C@H]2C(=O)N3CCC[C@H]3C(=O)NCC(=O)N[C@H](C(=O)N[C@@H](C)C(=O)N[C@@H](CCCNC(=N)N)C(=O)N/C(=C\C)C(=O)NCC(=O)N[C@@H]3CSC[C@@H]4NC(=O)[C@H](Cc5ccc(O)cc5)NC(=O)[C@@H](CS/C=C\NC4=O)NC(=O)[C@H](CC(N)=O)NC(=O)[C@H](Cc4ccccc4)NC3=O)CS[C@H]2C)NC(=O)[C@H](C)NC1=O` [L6A], in the test with Staphylococcus aureus, the “Minimum Inhibitory Concentration S. aureus ATCC 19636” value was found to be 8 mg/mL, the “Minimum Inhibitory Concentration S. aureus ATCC 29213” value came out at 16 mg/mL, the “Minimum Inhibitory Concentration S. aureus ATCC 33591” value came out at 1 mg/mL and the “Minimum Inhibitory Concentration S. aureus ATCC 700699” value came to 8 mg/mL. Besides, in the test with Staphylococcus aureus, the “Minimum Inhibitory Concentration S. aureus BAA-1717” value stood at 4 mg/mL, the “Minimum Inhibitory Concentration S. aureus Max” value was found to be 16 mg/mL, the “Minimum Inhibitory Concentration S. aureus Min” value turned out to be 1 mg/mL and the “Minimum Inhibitory Concentration S. aureus Mode” value was determined as 8 mg/mL. Further, the “Minimum Inhibitory Concentration S. aureus Range” value with Staphylococcus aureus lay within 1 to 16 mg/mL. Also, in the test on E. faecium, the “Minimum Inhibitory Concentration VRE ATCC 700221” value amounted to 4 mg/mL. In addition, the “Minimum Inhibitory Concentration VRE ATCC 51575” value in the test with E. faecalis came to 32 mg/mL. In addition, in the test on Clostridium difficile, the “Minimum Inhibitory Concentration C. difficile ATCC 9689” value was determined as 8 mg/mL, the “Minimum Inhibitory Concentration C. difficile BAA-1805” value was 0.06299 mg/mL and the “Minimum Inhibitory Concentration C. difficile BAA-1875” value is given as 0.125 mg/mL.
